Pooled drug test results. Numbers come from NIAID ChemDB, via PubChem.

All rows: tests in culture; agent: HIV-1; read-out: fold resistance

An empty or dashed field is not shown.

SMILES	cells	strain	changes	method	result
CCN1C(=O)c2c(O)c(=O)c(C(=O)NCc3ccc(F)c(Cl)c3F)cn2[C@H]2CCOC[C@H]21	MT-2	-	G140S/Q148R	luminescence	1.8
C=CCOc1cc(NC(=S)c2ccoc2C)ccc1OC	CEM + CEM-SS	CALO(RT-T139I)	RT-T139I	cytopathic effect / XTT	1.67
CCOCn1c(Sc2ccccc2)c(C(C)C)c(=O)[nH]c1=S	CEM	IIIB	RT-Y188H	syncytia	≥3330
Cc1ccc(-n2c(C)nnc2SCC(=O)Nc2ccccc2Br)c2ccccc12	HeLa + HeLa-JC53	NL4-3	RT-Y188L	luciferase	115
Cc1cc(C#N)cc(C)c1Oc1nc(Nc2ccc(C#N)cc2)ncc1SCC(=O)NCCN1CCOCC1	MT-4	-	Y188L	MTT	7.3
CC(C)c1c(Sc2ccccc2)n(COCCO)c(=S)[nH]c1=O	CEM	IIIB	RT-Y188H	syncytia	>50
Cc1cc(-n2c(C)nnc2SCC(=O)Nc2ccccc2Br)c2ccccc2c1C	HeLa + HeLa-JC53	NL4-3	RT-Y188L	luciferase	194
Cc1cc(C#N)cc(C)c1Oc1nc(Nc2ccc(C#N)cc2)ncc1SCC(=O)NC1CCN(C(=O)OC(C)(C)C)CC1	MT-4	-	E138K	MTT	6.3
CCc1c(C)[nH]c(=O)c(SC)c1Oc1cc(C)cc(C)c1	MT-4	-	RT-Y181C	cytopathic effect / MTT	16
Cc1ccc(C)c(CS(=O)c2ccc(Cl)c[n+]2[O-])c1	CEM	-	RT-Y181C	cytopathic effect	4.7
CCN1C(=O)c2c(O)c(=O)c(C(=O)NCc3ccc(F)c(Cl)c3F)cn2[C@H]2CCO[C@H]21	MT-2	-	N155H/Q148R	luminescence	2.2
O=C(O[C@@H]1[C@H](OC(=O)c2ccccc2)[C@@H](CO)O[C@H]1n1cnc2c(N(C(=O)c3ccccc3)C(=O)c3ccccc3)ncnc21)c1ccccc1	HeLaP4	NL4-3	M184V	β-galactosidase	0.99
O=C1Nc2ccc(Cl)cc2[C@@](C#CC2CC2)(C(F)(F)F)N1	-	-	RT-P225H	-	<6.32
CCOCn1c(Sc2ccccc2)c(C(C)C)c(=O)[nH]c1=O	CEM	IIIB TIBO R82913-resistant (RT K103N)	RT-K103N	syncytia	200
N#Cc1cc2[nH]c3ccccc3c2n(-c2ccc([N+](=O)[O-])cc2)c1=O	MT-4	A	RT-Y181C	cytopathic effect / MTT	8
Nc1nc(NC2CC2)c2ncn([C@H]3C=C[C@@H](CO)C3)c2n1	PBMC	XM-M184V	RT-M184V	p24	1.6
CC(C)=CCOc1cc(NC(=S)c2ccsc2C)ccc1Cl	CEM + CEM-SS	HEPT-resistant (RT P236L)	RT-P236L	cytopathic effect / XTT	2.5
O=C1Nc2ccc(Cl)cc2[C@@](/C=C/C2CC2)(C(F)(F)F)N1	-	-	RT-L100I	-	10
Cc1cc(C#N)cc(C)c1Oc1nc(Nc2ccc(C#N)cc2)ncc1SCC(=O)Nc1ccc(S(C)(=O)=O)cc1	MT-4	-	RES056	MTT	91.6
NS(=O)(=O)c1ccc(NC(=O)CSc2nnc(C(F)(F)F)n2-c2ccc(Cl)c3ccccc23)c(Cl)c1	HeLa + HeLa-JC53	NL4-3	RT-Y188L	luciferase	10
CCN1c2ncc(CCOc3ccc(-c4ccc(C(=O)O)c[n+]4[O-])cc3C)cc2C(=O)N(C)c2cccnc21	C8166	-	RT-K103N Y181C	p24	1
C=Cc1c(Oc2cc(C)cc(C)c2)c(CC)c(C)[nH]c1=O	MT-4	-	RT-Y181C	cytopathic effect / MTT	6
Cc1occc1C(=S)Nc1ccc(Cl)c(C(=O)OCC2CC2)c1	CEM + CEM-SS	NL4-3	RT-L100I	cytopathic effect / XTT	22
Cc1cc(C#N)cc(C(=O)c2cc(Cl)ccc2OCC(=O)Nc2ccc(OCCCN3CC=CC3)cc2C)c1	HeLa + HELA CD4+	HXB2	RT-K103N V108I	β-galactosidase	~1
Cc1ccc(C)c(C(Cl)S(=O)(=O)c2cc(C)cc[n+]2[O-])c1	CEM	-	RT-Y181C	cytopathic effect	>8.3
CC(C)=CCOc1cc(NC(=S)c2ccoc2C)ccc1Cl	CEM + CEM-SS	Thiazolobenzimidazole-resistant (RT V108I)	RT-V108I	cytopathic effect / XTT	10
C[C@@H]1CCO[C@H]2Cn3cc(C(=O)NCc4ccc(F)cc4F)c(=O)c(O)c3C(=O)N12	TZM-bl	-	I60M/L74F/V75I	luciferase / luminescence	0.5
Cc1ccc(C)c(CSc2c(Cl)ccc[n+]2[O-])c1	CEM	-	RT-K103N	cytopathic effect	96
Cc1cc(C)cc(C(=O)c2cc(Cl)ccc2OCC(=O)Nc2ccc(S(N)(=O)=O)cc2C)c1	HeLa + HELA CD4+	HXB2 (RT-K103N G190A) Recombinant	RT-K103N G190A	β-galactosidase	~1
Nc1nc(NC2CC2)c2ncn([C@H]3CO[C@@H](CO)O3)c2n1	MT-2	HXB2(RT-V75I) Recombinant	RT-V75I	RT activity	2
CCc1c(Sc2cc(C)cc(C)c2)n(COCc2ccccc2)c(=S)[nH]c1=O	CEM	IIIB	RT-Y181C	syncytia	53.3
CCc1c(C)[nH]c(=O)c(Sc2ccccc2)c1Oc1cc(C)cc(C)c1	MT-4	-	RT-L100I K103N	cytopathic effect / MTT	158
Cc1cc(S(N)(=O)=O)ccc1NC(=O)COc1ccc(Cl)cc1C(=O)c1cccc(C#N)c1	MT-4	Nevirapine-resistant (RT Y181C)	RT-Y181C	cytopathic effect / propidium iodide	~1
Cc1ccc(C2CC2)c(-c2ccc3c(c2)CCCO3)c1[C@H](OC(C)(C)C)C(=O)O	MT-4	NL4-3	INSTI-resistant (IN-E92Q)	luminescence	1
Cc1cc(C#N)cc(C(=O)c2cc(Cl)ccc2OCC(=O)Nc2ccc(S(N)(=O)=O)nc2C)c1	HeLa + HELA CD4+	HXB2	RT-P236L	β-galactosidase	~1
Cc1cc(C#N)cc(C)c1Oc1nc(Nc2ccc(C#N)cc2)ncc1SCC(=O)NCc1ccc(O)cc1	MT-4	-	F227L V106A	MTT	39.2
CCN1c2ncc(CCOc3ccc(NC(=O)CC(C)(C)C(=O)O)cc3C)cc2C(=O)N(C)c2cccnc21	C8166	-	RT-K103N Y181C	p24	>1
Cc1cc(C#N)cc(C)c1Oc1nc(Nc2ccc(C#N)cc2)ncc1SCC(N)=O	MT-4	-	K103N	MTT	1.9
CCc1ccc(-n2c(C)nnc2SCC(=O)Nc2ccc(C)cc2Cl)c2ccccc12	HeLa + HeLa-JC53	NL4-3	RT-Y188L	luciferase	110
CCC(=O)c1ccc(F)c([C@@H]2C[C@@H]2NC(=O)Nc2ccc(C#N)cn2)c1O	TZM-bl	LAI	NNRTI-resistant (RT Y188H)	β-galactosidase / luminescence	1.7
C[C@H]1CO[C@@H]2Cn3cc(C(=O)NCc4ccc(F)cc4F)c(=O)c(O)c3C(=O)N12	CBMC	NL4-3	M50I	RT activity	0.9
COCCNC(=O)CSc1cnc(Nc2ccc(C#N)cc2)nc1Oc1c(C)cc(C#N)cc1C	MT-4	-	E138K	MTT	2.3
CCN1c2ncc(CCOc3ccc(-c4ccc(C(=O)O)c(Cl)c4)cc3C)cc2C(=O)N(C)c2cccnc21	C8166	-	RT-K103N Y181C	p24	>1
CC(C)=CCOc1cc(NC(=S)c2ccsc2C)ccc1Cl	CEM + CEM-SS	NL4-3	RT-A98G	p24	1.5
Cc1ccc2c(C)cccc2c1-n1c(C)nnc1SCC(=O)Nc1ccccc1Br	HeLa + HeLa-JC53	NL4-3	RT-Y188L	luciferase	1100
C=CCO/N=C/c1cc(NC(=S)c2ccoc2C)ccc1Cl	CEM + CEM-SS	NL4-3	RT-L100I	cytopathic effect / XTT	186
CCN1c2ncc(CCOc3ccc(C(=O)Nc4ccc(C(=O)O)cc4)cc3C)cc2C(=O)Nc2c(C)ccnc21	C8166	-	RT-K103N Y181C	p24	>1
COc1cc2c(cc1Cc1cccc(Cl)c1F)c(=O)c(C(=O)O)cn2[C@H](CO)C(C)C	MT-4	NL4-3	Y99H	luminescence	1
CC(C)[C@H](NC(=O)OCc1ccccn1)C(=O)N[C@@H](Cc1ccccc1)[C@@H](O)C[C@H](Cc1ccccc1)NC(=O)OCc1cccnc1	MT-4	NL4-3	PR-I84V	p24	1
C=CCOc1cc(NC(=S)c2sccc2C)ccc1Cl	CEM + CEM-SS	CALO(RT-T139I)	RT-T139I	cytopathic effect / XTT	2.125
CCN1C(=O)c2c(O)c(=O)c(C(=O)NCc3c(F)cc(F)cc3F)cn2[C@H]2CCOC[C@H]21	MT-2	-	G140S/Q148R	luminescence	2.5
CN(C)C1=C(C#N)/C(=C2/C(C#N)=C(N(C)C)N(c3ccc([N+](=O)[O-])cc3)c3c2n(C)c2ccccc32)c2c(c3ccccc3n2C)N1c1ccc([N+](=O)[O-])cc1	CEM + CEM-SS	Diphenyl sulfone-resistant (RT-Y181I)	RT-Y181I	cytopathic effect / XTT	0.608
CCc1c(C)[nH]c(=O)c(I)c1Oc1cc(C)cc(C)c1	MT-4	-	RT-K103N Y181C	cytopathic effect / MTT	32
Cc1cc(C#N)cc(C(=O)c2ccccc2OCC(=O)Nc2ccc(S(N)(=O)=O)cc2C)c1	HeLa MAGI + HeLa	-	RT-L100I K103N	β-galactosidase	10
Cc1occc1C(=S)Nc1ccc(Cl)c(C(=O)OC(C)C)c1	CEM + CEM-SS	CALO(RT-T139I)	RT-T139I	cytopathic effect / XTT	2
Cn1c2ccccc2c2c1cc(C#N)c(=O)n2-c1ccc([N+](=O)[O-])cc1	MT-4	G	RT-V106A F227L	cytopathic effect / MTT	3
Cc1cc(C#N)cc(C)c1Oc1nc(Nc2ccc(C#N)cc2)ncc1SCC(=O)NC1CC1	MT-4	-	K103N	MTT	0.9
CCc1c(C)[nH]c(=O)c(C2CC2)c1Oc1cc(C)cc(C)c1	MT-4	-	RT-Y181C	cytopathic effect / MTT	25
Cc1cc2cccc(C)c2c(-n2c(C)nnc2SCC(=O)Nc2ccccc2Br)c1C	HeLa + HeLa-JC53	NL4-3	RT-Y188L	luciferase	67
Cc1ccc(C2CC2)c(-c2cc(F)c3c(c2C)CCCO3)c1[C@H](OC1CC1)C(=O)O	MT-4	NL4-3	H171Q	p24 / luminescence	1
Cc1cc(C#N)cc(C)c1Oc1nc(Nc2ccc(C#N)cc2)ncc1SCC(=O)NCCN1CCN(C(=O)OC(C)(C)C)CC1	MT-4	-	K103N	MTT	0.9
CC=CCOc1cc(NC(=S)c2ccoc2C)ccc1OC	CEM + CEM-SS	NL4-3	RT-V108I	cytopathic effect / XTT	3
CCN1c2ncc(CCOc3ccc(NC(=O)Nc4ccc(C(=O)O)cc4)cc3C)cc2C(=O)N(C)c2cccnc21	C8166	-	RT-K103N Y181C	p24	>1
Cc1cc(C#N)cc(C)c1Oc1nc(Nc2ccc(C#N)cc2)ncc1SCC(=O)NCC1CCCO1	MT-4	-	F227L V106A	MTT	38.9
Cc1cc(C)c2ccccc2c1-n1c(C)nnc1SCC(=O)Nc1ccccc1Br	HeLa + HeLa-JC53	NL4-3	RT-K103N Y181C	luciferase	70
Cc1ccc(C)c(CS(=O)(=O)c2cccc[n+]2[O-])c1	CEM	-	RT-Y181C	cytopathic effect	3.77
Cc1c(OCC2CCC2)c2cc(F)ccc2[nH]c1=O	HeLa + HeLa-MAGI	NNRTI-resistant (RT K103N)	RT-K103N	β-galactosidase	>3.28
CCOCn1c(Cc2ccccc2)c(C(C)C)c(=O)[nH]c1=O	CEM	IIIB	RT-Y181C	syncytia	110
Cc1ccc(-n2c(C)nnc2SCC(=O)Nc2ccccc2I)cc1	HeLa + HeLa-JC53	NL4-3	RT-K103N Y181C	luciferase	440

The last 9 rows once more:

SMILES,cells,strain,changes,method,result
Cc1cc(C#N)cc(C)c1Oc1nc(Nc2ccc(C#N)cc2)ncc1SCC(=O)NCCN1CCN(C(=O)OC(C)(C)C)CC1,MT-4,-,K103N,MTT,0.9
CC=CCOc1cc(NC(=S)c2ccoc2C)ccc1OC,CEM + CEM-SS,NL4-3,RT-V108I,cytopathic effect / XTT,3
CCN1c2ncc(CCOc3ccc(NC(=O)Nc4ccc(C(=O)O)cc4)cc3C)cc2C(=O)N(C)c2cccnc21,C8166,-,RT-K103N Y181C,p24,>1
Cc1cc(C#N)cc(C)c1Oc1nc(Nc2ccc(C#N)cc2)ncc1SCC(=O)NCC1CCCO1,MT-4,-,F227L V106A,MTT,38.9
Cc1cc(C)c2ccccc2c1-n1c(C)nnc1SCC(=O)Nc1ccccc1Br,HeLa + HeLa-JC53,NL4-3,RT-K103N Y181C,luciferase,70
Cc1ccc(C)c(CS(=O)(=O)c2cccc[n+]2[O-])c1,CEM,-,RT-Y181C,cytopathic effect,3.77
Cc1c(OCC2CCC2)c2cc(F)ccc2[nH]c1=O,HeLa + HeLa-MAGI,NNRTI-resistant (RT K103N),RT-K103N,β-galactosidase,>3.28
CCOCn1c(Cc2ccccc2)c(C(C)C)c(=O)[nH]c1=O,CEM,IIIB,RT-Y181C,syncytia,110
Cc1ccc(-n2c(C)nnc2SCC(=O)Nc2ccccc2I)cc1,HeLa + HeLa-JC53,NL4-3,RT-K103N Y181C,luciferase,440

Neighbouring rows are from separate reports. Fold resistance has wild type as its base.